Results of unrelated studies side by side (data: NIAID ChemDB).

Common to all: tests in culture; agent: Candida glabrata; endpoint: MIC

An empty or dashed field is not shown. Lines come from different laboratories, so protocols vary.

SMILES	strain	read by	setting	result
COc1ccc(/C=N/O)cc1				6620 µM
C[C@H]1[C@H](O)[C@@H](C)/C=C/C=C/C=C/C=C/C=C/C=C/C=C/[C@H](O[C@@H]2O[C@H](C)[C@@H](O)[C@H](N)[C@@H]2O)C[C@@H]2O[C@](O)(C[C@@H](O)C[C@@H](O)CC[C@H](O)[C@@H](O)C[C@@H](O)CC(=O)O[C@H]1C)C[C@H](O)[C@H]2C(=O)O	90030	broth dilution		0.03 µg/mL
Cc1ccc(N2C(=O)C[C@@H](C)C2=O)cc1	CCC 115-2000	broth dilution / turbidity		62.5 µg/mL
Cc1ccc(/C=N/Nc2ccnc3cc(Cl)ccc23)cc1				40 µg/mL
CC(=O)N1CCN(c2ccc(OC[C@H]3CO[C@](Cn4ccnc4)(c4ccc(Cl)cc4Cl)O3)cc2)CC1	40 isolates	broth dilution	pH 5	8 µg/mL
CCOc1ccc2nc3cc(N=C4NC(=O)/C(=C\c5ccc([N+](=O)[O-])o5)S4)ccc3c(N)c2c1		broth dilution		16.5 µg/mL
CCC(C)CC(C)CCCCCCCCC(=O)N[C@H]1C[C@@H](O)[C@H](NCCN)NC(=O)[C@@H]2[C@@H](O)CCN2C(=O)[C@H]([C@H](O)CCN)NC(=O)[C@H]([C@H](O)[C@@H](O)c2ccc(O)cc2)NC(=O)[C@@H]2C[C@@H](O)CN2C(=O)[C@H]([C@@H](C)O)NC1=O	8659	broth dilution		2 µg/mL
C[C@H]1[C@H](O)[C@@H](C)/C=C/C=C/C=C/C=C/C=C/C=C/C=C/[C@H](O[C@@H]2O[C@H](C)[C@@H](O)[C@H](N)[C@@H]2O)C[C@@H]2O[C@](O)(C[C@@H](O)C[C@@H](O)CC[C@H](O)[C@@H](O)C[C@@H](O)CC(=O)O[C@H]1C)C[C@H](O)[C@H]2C(=O)O	MTCC 3019	absorbance		0.5 µg/mL
Cc1ccc(C2CC(c3ccc4ccccc4c3)=Cc3[nH][nH]c(=O)c32)cc1				100 µg/mL
O/N=C\c1ccccc1Cl				2850 µM
COC(=O)/C(C)=C1\C(=O)[C@H](O)[C@]2(C)C3=C(C[C@@H]4[C@]5(OC(=O)C6=C5C[C@H]5[C@](O)(COC(=O)/C(C)=C/COC(=O)CCC(=O)OC6)[C@H]6C[C@H]6[C@]45C)[C@H]31)[C@H]1C[C@H]12	ATCC 90030	broth dilution		>256 µg/mL
COc1ccc(N2C(=O)C[C@@H](C)C2=O)cc1	CCC 115-2000	broth dilution / turbidity		62.5 µg/mL
OC(CCn1ccnc1)c1ccc(Br)cc1	RTCC 1054	broth dilution		>64 µg/mL
CC1C(=O)N(c2ccccc2)C(=O)C1C	CCC 115-2000	broth dilution / turbidity		125 µg/mL
CC[C@@H]([C@H](C)O)n1ncn(-c2ccc(N3CCN(c4ccc(OC[C@@H]5CO[C@@](Cn6cncn6)(c6ccc(F)cc6F)C5)cc4)CC3)cc2)c1=O	03-3245 + 04-1724			0.25 µg/mL
CC1(C)S[C@@H]2[C@H](NC(=O)[C@H](N)c3ccccc3)C(=O)N2[C@H]1C(=O)O	0902	broth dilution		>100 µg/mL
Nc1ncccc1-c1cc(Cc2ccc(COc3ccccn3)cc2)no1	8653	broth dilution		0.03 µg/mL
O/N=C/c1ccc(O)cc1				7290 µM
CC1=C2C3=C4[C@](C)([C@@H]5C[C@@H]5[C@@]4(O)C[C@@H]4[C@]35OC(=O)C3=C5C[C@H]5[C@](O)(COC(=O)/C(C)=C/COC(=O)CCC(=O)OC3)[C@H]3C[C@H]3[C@]45C)[C@H](O)[C@]2(O)OC1=O	ATCC 90030	broth dilution		>256 µg/mL
O=C(CCn1ccnc1)c1ccc(-c2ccccc2)cc1	RTCC 1040	broth dilution		4 µg/mL
O=c1c(OC2CCCC2)c(N2CCN(S(=O)(=O)NCc3ccccc3)CC2)cnn1-c1cccc(Cl)c1	C110	broth dilution		1 µg/mL
O=[N+]([O-])c1cccc(/C=N\O)c1				3010 µM
CO[C@@]12OC(=O)C(C)=C1C1=C3[C@](C)([C@@H]4C[C@@H]4[C@@]3(O)C[C@@H]3[C@]14OC(=O)C1=C4C[C@H]4[C@](O)(COC(=O)/C(C)=C/COC(=O)CCC(=O)OC1)[C@H]1C[C@H]1[C@]34C)[C@H]2O	ATCC 90030	broth dilution		>256 µg/mL
CCC(C)CC(C)CCCCCCCCC(=O)N[C@H]1C[C@@H](O)[C@H](NCCN)NC(=O)[C@@H]2[C@@H](O)CCN2C(=O)[C@H]([C@H](O)CCN)NC(=O)[C@H]([C@H](O)[C@@H](O)c2ccc(O)cc2)NC(=O)[C@@H]2C[C@@H](O)CN2C(=O)[C@H]([C@@H](C)O)NC1=O	40 isolates	broth dilution	pH 6	0.5 µg/mL
O=C(CCn1ccnc1)c1cccc(O)c1	RTCC 1054	broth dilution		>64 µg/mL
C/C(=N/O)C(Cl)(Cl)Cl				3220 µM
Clc1ccc(COC(Cn2ccnc2)c2ccc(Cl)cc2Cl)c(Cl)c1	40 isolates	broth dilution	pH 4	2 µg/mL
Clc1ccc(COC(Cn2ccnc2)c2ccc(Cl)cc2Cl)c(Cl)c1		agar diffusion / agar		110.8 µg/mL
O=C(O)c1ccc(C[C@H](C(=O)O)[C@@H](O)C(=O)O)cc1	DSM 11226			>4 µg/mL
O=C1c2ccccc2CC1Cn1ccnc1	RTCC 1054	broth dilution		>64 µg/mL
CC(C)(CS(=O)(=O)[O-])N(Cl)Cl	90030			16 µg/mL
O=c1[nH][nH]c2c1C(c1ccc(F)cc1)CC(c1ccc3ccccc3c1)=C2				6.25 µg/mL

For reference, 2 entries again:

CC1C(=O)N(c2ccccc2)C(=O)C1C ; strain: CCC 115-2000 ; read by: broth dilution / turbidity ; result: 125 µg/mL
C[C@H]1[C@H](O)[C@@H](C)/C=C/C=C/C=C/C=C/C=C/C=C/C=C/[C@H](O[C@@H]2O[C@H](C)[C@@H](O)[C@H](N)[C@@H]2O)C[C@@H]2O[C@](O)(C[C@@H](O)C[C@@H](O)CC[C@H](O)[C@@H](O)C[C@@H](O)CC(=O)O[C@H]1C)C[C@H](O)[C@H]2C(=O)O ; strain: 90030 ; read by: broth dilution ; result: 0.03 µg/mL